Test system: HCoV-229E
Assay: Plaque reduction test (antiviral assay) in Vero E6 cells
Conditions: plaque reduction vs untreated virus control

Structure (SMILES): CC[C@H](C)[C@H](NC(=O)[C@H](Cc1ccc(O)cc1)NC(=O)[C@H](CO)NC(=O)[C@H](CCC(=O)O)NC(=O)[C@H](CC(N)=O)NC(=O)[C@H](CC(C)C)NC(=O)[C@H](CCCCN)NC(=O)[C@H](CCCCN)NC(=O)[C@@H](NC(=O)[C@@H](NC(=O)[C@H](CCC(=O)O)NC(=O)[C@H](CCC(=O)O)NC(=O)[C@H](CC(C)C)NC(=O)[C@H](CO)NC(=O)[C@H](CCCNC(=N)N)NC(=O)[C@H](CCSC)NC(=O)[C@H](CCC(=O)O)NC(=O)[C@H](Cc1ccc(O)cc1)NC(=O)[C@H](CCC(=O)O)NC(=O)[C@H](CC(C)C)NC(=O)[C@H](CC(=O)O)NC(=O)[C@H](CC(C)C)NC(=O)[C@H](CC(C)C)NC(=O)[C@@H](NC(=O)[C@@H](NC(=O)[C@H](CC(N)=O)NC(=O)[C@@H](NC(=O)[C@H](CCC(N)=O)NC(=O)[C@@H](NC(=O)[C@H](CC(C)C)NC(=O)[C@@H](N)CO)[C@@H](C)O)[C@@H](C)CC)[C@@H](C)O)[C@@H](C)O)C(C)C)C(C)C)C(=O)N[C@@H](CC(=O)O)C(=O)N[C@@H](CC(C)C)C(=O)N[C@@H](CCCCN)C(=O)N[C@@H](CCC(=O)O)C(=O)N[C@@H](CC(C)C)C(=O)O
- Viral Inhibition % (peptide conc. 1 μg/ml): 9.4%
- Viral Inhibition % (peptide conc. 10 μg/ml): 40.6%
- Viral Inhibition % (peptide conc. 100 μg/ml): 46.8%

Structure (SMILES): CC[C@H](C)[C@H](NC(=O)[C@H](Cc1ccc(O)cc1)NC(=O)[C@H](CO)NC(=O)[C@H](CCC(=O)O)NC(=O)[C@H](CC(N)=O)NC(=O)[C@H](CC(C)C)NC(=O)[C@H](C)NC(=O)[C@H](CCCCN)NC(=O)[C@@H](NC(=O)[C@@H](NC(=O)[C@H](CCC(N)=O)NC(=O)[C@H](CCC(N)=O)NC(=O)[C@H](CC(C)C)NC(=O)[C@H](CO)NC(=O)[C@H](CC(C)C)NC(=O)[C@H](CCSC)NC(=O)[C@H](CCC(=O)O)NC(=O)[C@H](Cc1ccc(O)cc1)NC(=O)[C@@H](NC(=O)[C@H](CC(C)C)NC(=O)[C@H](CC(=O)O)NC(=O)[C@H](CC(C)C)NC(=O)[C@H](CC(C)C)NC(=O)[C@@H](NC(=O)[C@@H](NC(=O)[C@H](CC(N)=O)NC(=O)[C@@H](NC(=O)[C@H](CCC(N)=O)NC(=O)[C@@H](NC(=O)[C@H](CC(C)C)NC(=O)[C@@H](N)CO)[C@@H](C)O)[C@@H](C)CC)[C@@H](C)O)[C@@H](C)O)[C@@H](C)O)C(C)C)C(C)C)C(=O)N[C@@H](CC(=O)O)C(=O)N[C@@H](CC(C)C)C(=O)N[C@@H](CCCCN)C(=O)N[C@@H](CCC(=O)O)C(=O)N[C@@H](CC(C)C)C(=O)O
- Viral Inhibition % (peptide conc. 1 μg/ml): 13.9%
- Viral Inhibition % (peptide conc. 10 μg/ml): 41.7%
- Viral Inhibition % (peptide conc. 100 μg/ml): 58.3%

Structure (SMILES): CC[C@H](C)[C@H](NC(=O)[C@H](Cc1ccc(O)cc1)NC(=O)[C@H](CO)NC(=O)[C@H](CCC(=O)O)NC(=O)[C@H](CC(N)=O)NC(=O)[C@H](CC(C)C)NC(=O)[C@H](C)NC(=O)[C@H](CCCCN)NC(=O)[C@@H](NC(=O)[C@@H](NC(=O)[C@H](CCC(N)=O)NC(=O)[C@H](CCC(N)=O)NC(=O)[C@H](CC(C)C)NC(=O)[C@H](CO)NC(=O)[C@H](CCC(=O)O)NC(=O)[C@H](CCSC)NC(=O)[C@H](CCC(=O)O)NC(=O)[C@H](Cc1ccc(O)cc1)NC(=O)[C@@H](NC(=O)[C@H](CC(C)C)NC(=O)[C@H](CC(=O)O)NC(=O)[C@H](CC(C)C)NC(=O)[C@H](CC(C)C)NC(=O)[C@@H](NC(=O)[C@H](Cc1c[nH]c2ccccc12)NC(=O)[C@H](CC(N)=O)NC(=O)[C@@H](NC(=O)[C@H](CCC(N)=O)NC(=O)[C@@H](NC(=O)[C@H](CC(C)C)NC(=O)[C@@H](N)CO)[C@@H](C)O)[C@@H](C)CC)[C@@H](C)O)[C@@H](C)O)C(C)C)C(C)C)C(=O)N[C@@H](CC(=O)O)C(=O)N[C@@H](CC(C)C)C(=O)N[C@@H](CCCCN)C(=O)N[C@@H](CCC(=O)O)C(=O)N[C@@H](CC(C)C)C(=O)O
- Viral Inhibition % (peptide conc. 1 μg/ml): 2.1%
- Viral Inhibition % (peptide conc. 10 μg/ml): 35.1%
- Viral Inhibition % (peptide conc. 100 μg/ml): 85.3%

Reference: patent US11707504B1 (dated 2023)
